How the values were obtained:
[1] = tested on: Anthracnose fungus (Glomerella cingulata); experiment: Anthracnose anti-germ test (Test Example E); conditions: for Anthracnose anti-germ test (rate of inhibition): 50 ppm/well, Czapek-dox broth, 25°C for 3 days, absorbance 600 nm; for rate of inhibition: Test Example E, anthracnose anti-germ test
Botrytis cinerea = experiment: Tomato gray mold pot test (Test Example B); conditions: for Tomato gray mold pot test (control value): 250 ppm sprayed, 2.5 ml/pot, tomato variety Oogata Fukuju, degree of disease development 2 to 3 days after inoculation; for control value: Test Example B, tomato gray mold pot test
[2] = tested on: Gray mold fungus (Botrytis cinerea); experiment: Gray mold anti-germ test (Test Example C); conditions: for Gray mold anti-germ test (rate of inhibition): 50 ppm/well, Czapek-dox broth, 25°C for 3 days, absorbance 600 nm; for rate of inhibition: Test Example C, gray mold anti-germ test
[3] = tested on: Fusarium blight fungus (Fusarium graminearum); experiment: Fusarium blight anti-germ test (Test Example D); conditions: for Fusarium blight anti-germ test (rate of inhibition): 50 ppm/well, Czapek-dox broth, 25°C for 3 days, absorbance 600 nm; for rate of inhibition: Test Example D, Fusarium blight anti-germ test
[4] = tested on: Speckled leaf blotch fungus (Septoria tritici); experiment: Speckled leaf blotch anti-germ test (Test Example F); conditions: for Speckled leaf blotch anti-germ test (rate of inhibition): 50 ppm/well, Czapek-dox broth, 25°C for 3 days, absorbance 600 nm; for rate of inhibition: Test Example F, speckled leaf blotch anti-germ test
Magnaporthe grisea = experiment: Rice blast disease pot test (Test Example A); conditions: for Rice blast disease pot test (control value): 250 ppm sprayed, 2.5 ml/pot, rice variety Sachikaze, degree of disease development 6 to 8 days after inoculation; for control value: Test Example A, rice blast disease pot test

SMILES | Anthracnose anti-germ test (rate of inhibition) [1] | Tomato gray mold pot test (control value) (Botrytis cinerea) | Gray mold anti-germ test (rate of inhibition) [2] | Fusarium blight anti-germ test (rate of inhibition) [3] | Speckled leaf blotch anti-germ test (rate of inhibition) [4] | Rice blast disease pot test (control value) (Magnaporthe grisea) | rate of inhibition [1] | control value (Botrytis cinerea) | rate of inhibition [2] | rate of inhibition [3] | rate of inhibition [4] | control value (Magnaporthe grisea)
Cc1cccc2c1OC(C)(C)N=C2c1cnc2c(C)c(C)ccn12 | H (H represents a control value or rate of inhibition of larger than 50%) | H (H represents a control value or rate of inhibition of larger than 50%) | H (H represents a control value or rate of inhibition of larger than 50%) | H (H represents a control value or rate of inhibition of larger than 50%) | H (H represents a control value or rate of inhibition of larger than 50%) | H (H represents a control value or rate of inhibition of larger than 50%) | – | – | – | – | – | –
Cc1ccc2c(ncn2C2=NC(C)(C)Oc3cc(NC(=O)OC(C)(C)C)ccc32)c1C | H (H represents a control value or rate of inhibition of larger than 50%) | L (L represents a control value or rate of inhibition of 50% or less) | H (H represents a control value or rate of inhibition of larger than 50%) | L (L represents a control value or rate of inhibition of 50% or less) | H (H represents a control value or rate of inhibition of larger than 50%) | L (L represents a control value or rate of inhibition of 50% or less) | – | – | – | – | – | –
COc1cccc2c1OC(C)(C)N=C2n1cnc2c(OC)cccc21 | L (L represents a control value or rate of inhibition of 50% or less) | L (L represents a control value or rate of inhibition of 50% or less) | L (L represents a control value or rate of inhibition of 50% or less) | L (L represents a control value or rate of inhibition of 50% or less) | L (L represents a control value or rate of inhibition of 50% or less) | L (L represents a control value or rate of inhibition of 50% or less) | – | – | – | – | – | –
CC(=O)C1(C)N=C(n2cnc3c(C)c(C)ccc32)c2cccc(C)c2O1 (stereo not drawn) | H (H represents a control value or rate of inhibition of larger than 50%) | H (H represents a control value or rate of inhibition of larger than 50%) | H (H represents a control value or rate of inhibition of larger than 50%) | H (H represents a control value or rate of inhibition of larger than 50%) | H (H represents a control value or rate of inhibition of larger than 50%) | H (H represents a control value or rate of inhibition of larger than 50%) | – | – | – | – | – | –
COc1cccc2c1OC(C)(C)N=C2n1cnc2c(C)c(C)ccc21 | H (H represents a control value or rate of inhibition of larger than 50%) | H (H represents a control value or rate of inhibition of larger than 50%) | H (H represents a control value or rate of inhibition of larger than 50%) | H (H represents a control value or rate of inhibition of larger than 50%) | L (L represents a control value or rate of inhibition of 50% or less) | H (H represents a control value or rate of inhibition of larger than 50%) | – | – | – | – | – | –
Cc1ccc2c(c1)SC(C)(C)N=C2n1cnc2c(C)c(C)ccc21 | H (H represents a control value or rate of inhibition of larger than 50%) | H (H represents a control value or rate of inhibition of larger than 50%) | H (H represents a control value or rate of inhibition of larger than 50%) | H (H represents a control value or rate of inhibition of larger than 50%) | H (H represents a control value or rate of inhibition of larger than 50%) | H (H represents a control value or rate of inhibition of larger than 50%) | – | – | – | – | – | –
Cc1ccc2c(ncn2C2=NC(C)(C)[S+]([O-])c3c(F)cccc32)c1C (stereo not drawn) | H (H represents a control value or rate of inhibition of larger than 50%) | H (H represents a control value or rate of inhibition of larger than 50%) | H (H represents a control value or rate of inhibition of larger than 50%) | H (H represents a control value or rate of inhibition of larger than 50%) | L (L represents a control value or rate of inhibition of 50% or less) | H (H represents a control value or rate of inhibition of larger than 50%) | – | – | – | – | – | –
Cc1cccc2c1OC(C)(C)N=C2n1cnc2c(Cl)cccc21 | H (H represents a control value or rate of inhibition of larger than 50%) | H (H represents a control value or rate of inhibition of larger than 50%) | H (H represents a control value or rate of inhibition of larger than 50%) | L (L represents a control value or rate of inhibition of 50% or less) | H (H represents a control value or rate of inhibition of larger than 50%) | H (H represents a control value or rate of inhibition of larger than 50%) | – | – | – | – | – | –
CCc1ccc2c(c1)OC(C)(C)N=C2n1cnc2c(C)c(C)ccc21 | H (H represents a control value or rate of inhibition of larger than 50%) | H (H represents a control value or rate of inhibition of larger than 50%) | H (H represents a control value or rate of inhibition of larger than 50%) | H (H represents a control value or rate of inhibition of larger than 50%) | H (H represents a control value or rate of inhibition of larger than 50%) | H (H represents a control value or rate of inhibition of larger than 50%) | – | – | – | – | – | –
CCCCC1(C)N=C(c2cnn3c(C)c(C)ccc23)c2ccccc2S1(=O)=O (stereo not drawn) | H (H represents a control value or rate of inhibition of larger than 50%) | H (H represents a control value or rate of inhibition of larger than 50%) | H (H represents a control value or rate of inhibition of larger than 50%) | H (H represents a control value or rate of inhibition of larger than 50%) | L (L represents a control value or rate of inhibition of 50% or less) | H (H represents a control value or rate of inhibition of larger than 50%) | – | – | – | – | – | –
Cc1cccc2c1OC(C)(C)N=C2n1cnc2c(C)c(Br)ccc21 | H (H represents a control value or rate of inhibition of larger than 50%) | L (L represents a control value or rate of inhibition of 50% or less) | L (L represents a control value or rate of inhibition of 50% or less) | L (L represents a control value or rate of inhibition of 50% or less) | L (L represents a control value or rate of inhibition of 50% or less) | H (H represents a control value or rate of inhibition of larger than 50%) | – | – | – | – | – | –
CCC1(C)N=C(c2cnn3c(C)c(C)ncc23)c2cccc(F)c2S1 (stereo not drawn) | – | – | – | – | – | – | H (H represents a control value or rate of inhibition of larger than 50%) | H (H represents a control value or rate of inhibition of larger than 50%) | H (H represents a control value or rate of inhibition of larger than 50%) | H (H represents a control value or rate of inhibition of larger than 50%) | H (H represents a control value or rate of inhibition of larger than 50%) | H (H represents a control value or rate of inhibition of larger than 50%)
CCCCC1(C)N=C(c2cnn3c(C(F)(F)F)c(C)cnc23)c2cccc(F)c2O1 (stereo not drawn) | – | – | – | – | – | – | H (H represents a control value or rate of inhibition of larger than 50%) | H (H represents a control value or rate of inhibition of larger than 50%) | H (H represents a control value or rate of inhibition of larger than 50%) | H (H represents a control value or rate of inhibition of larger than 50%) | H (H represents a control value or rate of inhibition of larger than 50%) | H (H represents a control value or rate of inhibition of larger than 50%)
Cc1ccc2c(C3=NC(C)(C)Oc4c3cccc4C3CC3)cnn2c1C | H (H represents a control value or rate of inhibition of larger than 50%) | H (H represents a control value or rate of inhibition of larger than 50%) | H (H represents a control value or rate of inhibition of larger than 50%) | H (H represents a control value or rate of inhibition of larger than 50%) | H (H represents a control value or rate of inhibition of larger than 50%) | H (H represents a control value or rate of inhibition of larger than 50%) | – | – | – | – | – | –

Source: patent publication EP4821928A1, “BICYCLIC HETEROCYCLIC COMPOUND AND FUNGICIDE FOR AGRICULTURAL AND HORTICULTURAL USE CONTAINING SAME AS ACTIVE INGREDIENT” (dated 2026)
